This is an account of results in the supplement of paper PMC9931576.

Human monoclonal antibodies against the spike receptor-binding domain (heavy:light variable regions). IC50 against pseudoviruses bearing the spike of naturally observed variants; lower = stronger; >10 µg/ml means not reached at the top dose. No active / inactive call. The stated detection limit is 0.0005 µg/ml; values near or below 0.001 µg/ml lie at the floor of the assay.

Common to all, as to assay: pseudovirus neutralization IC50; higher = weaker neutralization
Test [1] has as its target SARS-CoV-2 Omicron BA.1 spike pseudovirus. As to the method:
(§1)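 Single-round VSV luciferase pseudovirus mixed with antibody dilutions for 1 h and put on Huh-7 cells for about a day; IC50 from the dose curve.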

For test [2], the target named is SARS-CoV-2 Omicron BA.2 spike pseudovirus. The procedure: as §1
Test [3] deals with SARS-CoV-2 Omicron BA.2.75 spike pseudovirus. The procedure: as §1
The target in test [4] is SARS-CoV-2 Omicron BA.5 spike pseudovirus. As to the method:
as §1

The target in test [5] is SARS-CoV-2 Omicron BQ.1.1 spike pseudovirus. The procedure: as §1
In test [6] the target is SARS-CoV-2 Omicron XBB spike pseudovirus. As to the method: as §1
The target of test [7] is SARS-CoV-2 early D614G spike pseudovirus. As to the method: as §1

B1: BD-906 (protein)
chain 1: QLHLQESGPGLVKPSETLSLNCTASSGSFSWGDYYWAWIRQPPGKGPEWIGSIYYSRNTYYHPSLKSRVTISVDTSKNQFSLKLSSVTAADTAKYYCARHFRPPYYSGSGSYHYGMDVWGQGTTVTVSS
chain 2: DIQMTQSPFFLSASVGDRVTITCRASQSIINYLNWYQQKPGKAPKLLIYTASNLQSGVPSRFSGSGSETDFTLTISSLQPEDFATYYCQQSYSIPDTFGQGTKLEIK
Turning to B1, the “pseudovirus neutralization IC50” value in test [1], in test [2], in test [3], in test [4], in test [5] and in test [6] was over 10 µg/mL in each case. Besides, the “pseudovirus neutralization IC50” value in test [7] stood at 0.017 µg/mL.

B2: BD55-557 (protein)
chain 1: QVQLVQSGSELKKPGASVKVSCKASGYTFTTYAMNWVRQAPGQGLEWMGWINTNTGNPTYAQGFTGRFVLSLDTSVSTAYLQISSLKAEDTAVYYCARDSSVITSVAAGGTLTIAEYFQHWGQGTLVTVSS
chain 2: SYELTQPPSVSVSPGQTARITCSGDALPKQYAYWYQQKPGQAPVLVIYKDNERPSGIPERFSGSSSGTTVTLTISGVQAEDEADYYCQSADSRYIFGGGTKLTVL
Turning to B2, the “pseudovirus neutralization IC50” value in test [1], in test [2], in test [3], in test [4], in test [5] and in test [6] was over 10 µg/mL throughout. Also, the “pseudovirus neutralization IC50” value in test [7] is over 10 µg/mL.

B3: BD55-683 (protein)
chain 1: EVQLVESGGGLVQPGGSLRLSCAASGFTFSSYWMSWVRQAPGKGLEWVANIKQDGSEKYYVDSVKGRFTISRDNAKNSLYLQMNSLRAEDTAVYYCARVPRGYYDSSGYYHEIYYFDYWGQGTLVTVSS
chain 2: NFMLTQPHSVSESPGKTVTISCTRSSGSIASNYVQWYQQRPGSSPTTVIYEDNQRPSGVPDRFSGSIDSSSNSASLTISGLKTEDEADYYCQSYDSSNHVWVFGGGTKLTVL
For the molecule B3, the “pseudovirus neutralization IC50” value in test [1], in test [2], in test [3], in test [4], in test [5] and in test [6] was over 10 µg/mL each time. In test [7], the “pseudovirus neutralization IC50” value is 2.89 µg/mL.

B4: BD-914 (protein)
chain 1: QVQLVQSGAEVTKPGSSVKVSCKTSGDTFSLYPISWVRQAPGQGLEWMGRIIPIVGIADYAQKFQGRVTITADKSTSTAYMELSSLRSEDTAIYYCARDGNQYYYDSGGDYYVNYWGQGTLITVSS
chain 2: DIQMTQSPSSLSASVGDRVTITCQASQDIRKDLNWYRQRPGKAPKLLIYDASNLETGVPSRFSGSGSGTHFTFTISGLQPEDVATYYCQQYDNVPVTFGPGTKVDIR
On to B4, for which the “pseudovirus neutralization IC50” value in test [1] is 0.0713 µg/mL; in test [2] it was 0.046 µg/mL; in test [3], 0.0223 µg/mL; in test [4], over 10 µg/mL; in test [5], over 10 µg/mL; in test [7] it was 0.012 µg/mL.

B5: BD55-751 (protein)
chain 1: QVQLVQSGSELKKPGASVKVSCKASGYTFTNYGINWVRQAPGQGLEWMGWINTYTGNPTYAQGFTGRFVFSFDTSVNTAYLQISSLKAEDTAVYYCARANRKYYYGHILEWFDPWGQGTLVTVSS
chain 2: QLVLTQSPSASASLGASVRLTCTLSSGHSSYAIAWHQQQPGKGPRFLMKVYSDGVHSKGDGIPDRFSGSSSGAERYLTISSLQSEDEADYYCQTWGTDIGVFGTGTKVTVL
As to B5, the “pseudovirus neutralization IC50” value in test [1], in test [2], in test [3], in test [4], in test [5] and in test [6] was over 10 µg/mL throughout. Besides, the “pseudovirus neutralization IC50” value in test [7] was 1.68 µg/mL.

B6: BD55-688 (protein)
chain 1: QVQLQESGPGLVKPSETLSLTCTVSGGSISNYFWSWLRQPPGKGLEWIGYIYNSGNTNYNPSLKSRVTISVDTSKNQFSLKVSSVTAADTAVYYCARGRWLRGEFDYWGQGTLVTVSS
chain 2: NFMLTQPHSVSESPGKTVTISCTGSSGSIASNYVQWYQQRPGSAPMTVIYEDNLRPSGVPDRFSGSIDSSSNSASLTISGLKTEDEADYYCQSYDSGFYVFGTGTKVTVL
For B6, the “pseudovirus neutralization IC50” value is 2.64 µg/mL in test [1]; over 10 µg/mL in test [2]; over 10 µg/mL in test [3]; over 10 µg/mL in test [4]; over 10 µg/mL in test [5]; over 10 µg/mL in test [6]. Besides, the “pseudovirus neutralization IC50” value in test [7] is 1.33 µg/mL.

B7: BD55-711 (protein)
chain 1: QVTLKESGPVLVKPTETLTLTCSVSGFSLSNARMGVSWIRQPPGKALEWLAHIFSNDEKSYSTSLKSRLTISKDTSKSQVVLTMTNMDPVDTATYFCARMPMYYDVLRGGYYYGMDVWGQGITVTVSS
chain 2: NFMLTQPHSVSESPGKTVTISCTRSSGSIASNYVQWYQQRPGSAPTTVIYEDNERPSGVPDRFSGSIDSSSNSASLTISGLKTEDEADYYCQSYDSSTVVFGGGTKLTVL
For the molecule B7, the “pseudovirus neutralization IC50” value in test [1], in test [2], in test [3], in test [4], in test [5] and in test [6] was over 10 µg/mL in each case. Besides, the “pseudovirus neutralization IC50” value in test [7] amounted to 4 µg/mL.

B8: BD55-747 (protein)
chain 1: QLQLHESGPPLLKPSATLSLTCTVSGASFNSANYFWAWIRQPPGKGLEWIGTFYYTGTTYYNPSLKSRVTMSVDTSKNQFSLRLISVAAADTAVYYCASLRWLRGQFNYWGQGSLVTVSS
chain 2: NFMLTQPHSVSESPGKTVTISCTRISGYIASNYVHWYQQRPGSAPTTVIYEDNQRPSGVPDRFSGSIDSSSNSASLTISGLKTEDEADYYCQSYDSTFWVFGGGTKVTVL
Turning to B8, the “pseudovirus neutralization IC50” value is 3.18 µg/mL in test [1]; over 10 µg/mL in test [2]; over 10 µg/mL in test [3]; over 10 µg/mL in test [4]; over 10 µg/mL in test [5]; over 10 µg/mL in test [6]. The “pseudovirus neutralization IC50” value in test [7] is 0.305 µg/mL.

B9: BD-901 (protein)
chain 1: QVQLVQSGADVKKPGSSVKVSCKASGGTFSSSDISWVRLAPGHGLEWMGKIIPTLGIPNYAEKFEGRVTITADKSANIAYMELSGLRSDDTAVYYCAKDRGYSGPGAAVYYDSWGQGTLVTVSS
chain 2: QSVLTQPPSVSGAPGQRVTISCTGSSSNIGAGYDVHWYQQLPGTAPKLLVYRNTYRPSGVPDRFFGSKSGTSASLLITGLQAADEADYYCQSYDSSLIGSIFGGGTKLTVL
B9: the “pseudovirus neutralization IC50” value in test [1] is 0.165 µg/mL; in test [2] it was 0.238 µg/mL; in test [3] it was 0.244 µg/mL; in test [4] it was 1.05 µg/mL; in test [5], over 10 µg/mL; in test [6], over 10 µg/mL. The “pseudovirus neutralization IC50” value in test [7] stood at 0.113 µg/mL.

B10: BD55-749 (protein)
chain 1: QVQLVQSGAEVKKPGASVKVSCKASGYTFSNYGITWVRQAPGQGLEWMGWISAYNSNTKYAQKFQGRVTMTTETSTSTAYMELRFLRSDDTAVYYCARLLTGTTFVSSSRAFDIWGQGTMVTVSS
chain 2: SYELTQPPSVSVSPGQTASITCSGDALSKQYAYWYQQRPGQAPVVVIYKDRERPSGIPERFSGSSSGTTVTLTITGVQAEDEADYYCQSADSSGTYVFGTGTKVTVL
In the case of B10, the “pseudovirus neutralization IC50” value in test [1] is 4.5 µg/mL; in test [2], 6.02 µg/mL; in test [3], 5.33 µg/mL; in test [4] it was 6.21 µg/mL; in test [5], over 10 µg/mL; in test [6] it was over 10 µg/mL. For the same molecule, the “pseudovirus neutralization IC50” value in test [7] was 1.04 µg/mL.

B11: BD-912 (protein)
chain 1: EEQLVQSGGGLVKPGGSLRLSCAASGFPFSAYTMNWVRQTPGKGLEWVSSISSSSTYIYYADSVKGRFTISRDNARNSLYLQLNSLRVDDTAVYYCWSCGSGSHPFDYWGQGTLVTVSS
chain 2: QSALTQPASVSGSPGQSITVSCTGTSSDVGGFNYVFWYQQHPGKAPKLLIYDVTYRPSGVSNRFSGSKSGNTASLTISGLQAEDEADYYCTSFTTSSTWVFGGGTKVTVL
Take B11: the “pseudovirus neutralization IC50” value in test [1] was 0.965 µg/mL; in test [2], 1.4 µg/mL; in test [3], 0.0885 µg/mL; in test [4] it was over 10 µg/mL; in test [5], over 10 µg/mL; in test [6] it was over 10 µg/mL. The “pseudovirus neutralization IC50” value in test [7] was 0.014 µg/mL.

B12: BD55-742 (protein)
chain 1: QVTLKESGPVLVKPTETLTLTCTVSGFSLSNARMGVSWIRQPPGKALEWLAHIFSNDEKSYSTSLKSRLTISKDTSKSQVVLTMTNMDPVDTATYYCARILYVVLTAIPLDEGYFDLWGRGTLVTVSS
chain 2: SYELTQPPSVSVSPGQTARITCSGDTLPKQYVYWYQQKPGQAPVLTIYKDSERPSGIPERFSGSSSGTTVTLTISRVQAEDEADYYCQSADSRGVVFGGGTKLTVL
Consider B12, for which the “pseudovirus neutralization IC50” value in test [1], in test [2], in test [3], in test [4], in test [5] and in test [6] was over 10 µg/mL throughout. Further, the “pseudovirus neutralization IC50” value in test [7] is over 10 µg/mL.
